Reference: patent publication US9932570B2 (priority 2015, dated 2018)

What was measured:
Anthrax lethal factor [1] = target: T1, Anthrax lethal factor (Bacillus anthracis, UniProt P15917, A299S)
Anthrax lethal factor [2] = target: T1, Anthrax lethal factor; details: assay buffer
Anthrax lethal factor [3] = target: T1, Anthrax lethal factor; details: for LOD: LF in neat plasma; for 3x standard deviation + the average: blanks (0 pg LF, n=6); for Intercept / Slope: peak area vs LF concentration
[4] = LF 5 pg/ml neat plasma, 2 hour digest
[5] = LF 5 pg/ml neat plasma, 3.5 hour digest
[6] = LF 5 pg/ml neat plasma, 5 hour digest
[7] = LF 5 pg/ml neat plasma, overnight digest (RT)
[8] = LF 10 pg/ml neat plasma, 2 hour digest
[9] = LF 10 pg/ml neat plasma, 3.5 hour digest
[10] = LF 10 pg/ml neat plasma, 5 hour digest
[11] = LF 10 pg/ml neat plasma, overnight digest (RT)
[12] = LF 20 pg/ml neat plasma, 3.5 hour digest
[13] = LF 20 pg/ml neat plasma, 5 hour digest
[14] = LF 20 pg/ml neat plasma, overnight digest (RT)
[15] = LF 50 pg/ml neat plasma, 2 hour digest
[16] = LF 50 pg/ml neat plasma, 3.5 hour digest
[17] = LF 50 pg/ml neat plasma, 5 hour digest
[18] = LF 50 pg/ml neat plasma, overnight digest (RT)

CC(=O)N[C@@H](CCCNC(=N)N)C(=O)N[C@@H](CCCNC(=N)N)C(=O)N[C@@H](CCCCN)C(=O)N[C@@H](CCCCN)C(=O)N[C@H](C(=O)N[C@@H](Cc1ccc(O)cc1)C(=O)N1CCC[C@H]1C(=O)Nc1ccc2c(C)cc(=O)oc2c1)C(C)C [LBL 10079] was tested, and the “Fluorescence as a function of LF concentration in 1:10 diluted plasma” value (Anthrax lethal factor [1]; 1:10 diluted plasma) was “did not correlate with the amount of LF”.

For CC(=O)N[C@@H](CCCNC(=N)N)C(=O)N[C@H](CCCNC(=N)N)C(=O)N[C@H](CCCCN)C(=O)N[C@H](CCCCN)C(=O)N[C@H](C(=O)N[C@@H](Cc1ccc(O)cc1)C(=O)N1CCC[C@H]1C(=O)Nc1ccc2c(C)cc(=O)oc2c1)C(C)C [LBL 10081], the “Amount of hydrolysis by LF compared with LBL 10079 (no D-amino acids)” value (Anthrax lethal factor [2]) was “similar”, the “Limit of detection at all time points” value (Anthrax lethal factor [3]; 2, 3.5, 5 hr and overnight digests) was “less than 5 pg LF/ml of neat plasma” and the “Peak area, Average” value (Anthrax lethal factor [3]; LF 0 pg/ml neat plasma, 2 hour digest) was 6006. The “Peak area, Average” value (Anthrax lethal factor [3]; LF 0 pg/ml neat plasma, 3.5 hour digest) was 8815, the “Peak area, Average” value (Anthrax lethal factor [3]; LF 0 pg/ml neat plasma, 5 hour digest) was 10645 and the “Peak area, Average” value (Anthrax lethal factor [3]; LF 0 pg/ml neat plasma, overnight digest (RT)) was 17136. The “Peak area (replicates)” value (Anthrax lethal factor [3]; [4]) was 9414 and 8891, the “Peak area, Average” value (Anthrax lethal factor [3]; [4]) was 9153 and the “Peak area (replicates)” value (Anthrax lethal factor [3]; [5]) was 11466 and 13177. For the same compound, the “Peak area, Average” value (Anthrax lethal factor [3]; [5]) was 12322, the “Peak area (replicates)” value (Anthrax lethal factor [3]; [6]) was 14786 and 15119 and the “Peak area, Average” value (Anthrax lethal factor [3]; [6]) was 14953. For the same compound, the “Peak area (replicates)” value (Anthrax lethal factor [3]; [7]) was 28485 and 25333, the “Peak area, Average” value (Anthrax lethal factor [3]; [7]) was 26909 and the “Peak area (replicates)” value (Anthrax lethal factor [3]; [8]) was 10657 and 9972. The “Peak area, Average” value (Anthrax lethal factor [3]; [8]) was 10315, the “Peak area (replicates)” value (Anthrax lethal factor [3]; [9]) was 16464 and 15348 and the “Peak area, Average” value (Anthrax lethal factor [3]; [9]) was 15906. For the same compound, the “Peak area (replicates)” value (Anthrax lethal factor [3]; [10]) was 22235 and 22382, the “Peak area, Average” value (Anthrax lethal factor [3]; [10]) was 22309 and the “Peak area (replicates)” value (Anthrax lethal factor [3]; [11]) was 36468 and 36027. The “Peak area, Average” value (Anthrax lethal factor [3]; [11]) was 36248, the “Peak area (replicates)” value (Anthrax lethal factor [3]; LF 20 pg/ml neat plasma, 2 hour digest) was 16883 and 14926 and the “Peak area (replicates)” value (Anthrax lethal factor [3]; [12]) was 24042 and 24282. The “Peak area, Average” value (Anthrax lethal factor [3]; [12]) was 24162, the “Peak area (replicates)” value (Anthrax lethal factor [3]; [13]) was 31594 and 34237 and the “Peak area, Average” value (Anthrax lethal factor [3]; [13]) was 32916. For the same compound, the “Peak area (replicates)” value (Anthrax lethal factor [3]; [14]) was 58250 and 57550, the “Peak area, Average” value (Anthrax lethal factor [3]; [14]) was 57900 and the “Peak area (replicates)” value (Anthrax lethal factor [3]; [15]) was 33668 and 33656. For the same compound, the “Peak area, Average” value (Anthrax lethal factor [3]; [15]) was 33662, the “Peak area (replicates)” value (Anthrax lethal factor [3]; [16]) was 49662 and 48443 and the “Peak area, Average” value (Anthrax lethal factor [3]; [16]) was 49053. For the same compound, the “Peak area (replicates)” value (Anthrax lethal factor [3]; [17]) was 67245 and 66068, the “Peak area, Average” value (Anthrax lethal factor [3]; [17]) was 66657 and the “Peak area (replicates)” value (Anthrax lethal factor [3]; [18]) was 136035 and 124407. The “Peak area, Average” value (Anthrax lethal factor [3]; [18]) was 130221, the LOD (Anthrax lethal factor [3]; 2 hr digest) was 2.9 pg/ml plasma and the LOD (Anthrax lethal factor [3]; 3.5 hr digest) was 4.3 pg/ml plasma. The LOD (Anthrax lethal factor [3]; 5 hr digest) was 2.2 pg/ml plasma, the LOD (Anthrax lethal factor [3]; overnight digest (RT)) was 2.8 pg/ml plasma and the “3x standard deviation + the average” value (Anthrax lethal factor [3]; 2 hr digest) was 7189. The “3x standard deviation + the average” value (Anthrax lethal factor [3]; 3.5 hr digest) was 11735, the “3x standard deviation + the average” value (Anthrax lethal factor [3]; 5 hr digest) was 12768 and the “3x standard deviation + the average” value (Anthrax lethal factor [3]; overnight digest (RT)) was 21393. For the same compound, the Intercept (Anthrax lethal factor [3]; 2 hr digest) was 5595 Peak area, the Slope (Anthrax lethal factor [3]; 2 hr digest) was 553 Peak Area/pg LF and the Intercept (Anthrax lethal factor [3]; 3.5 hr digest) was 8256 Peak area. For the same compound, the Slope (Anthrax lethal factor [3]; 3.5 hr digest) was 811 Peak Area/pg LF, the Intercept (Anthrax lethal factor [3]; 5 hr digest) was 10324 Peak area and the Slope (Anthrax lethal factor [3]; 5 hr digest) was 1127 Peak Area/pg LF. For the same compound, the Intercept (Anthrax lethal factor [3]; overnight digest (RT)) was 14916 Peak area, the Slope (Anthrax lethal factor [3]; overnight digest (RT)) was 2280 Peak Area/pg LF and the “Limit of detection, kinetic analysis (peak area vs time)” value (Anthrax lethal factor [3]; reaction rate method) was “around 5 pg LF/ml neat plasma”.

For CC(=O)N[C@H](CCCNC(=N)N)C(=O)N[C@H](CCCNC(=N)N)C(=O)N[C@H](CCCCN)C(=O)N[C@H](CCCCN)C(=O)N[C@H](C(=O)N[C@@H](Cc1ccc(O)cc1)C(=O)N1CCC[C@H]1C(=O)Nc1ccc2c(C)cc(=O)oc2c1)C(C)C [LBL 10097], the “Cleavage by LF compared with LBL 10081 (L-Arg at N-terminal)” value (Anthrax lethal factor [2]) was “similar”, the LOD (Anthrax lethal factor [1]; 5 hrs digest) was 120 pg/ml of 1:10 diluted plasma and the “LOD × 10, neat plasma” value (Anthrax lethal factor [1]; 5 hrs digest) was 1200 pg/ml. For the same compound, the LOD (Anthrax lethal factor [1]; 24 hrs digest) was 139 pg/ml of 1:10 diluted plasma and the “LOD × 10, neat plasma” value (Anthrax lethal factor [1]; 24 hrs digest) was 1390 pg/ml.

With CC(=O)N[C@@H](CCCNC(=N)N)C(=O)N[C@H](CCCNC(=N)N)C(=O)N[C@H](CCCCN)C(=O)N[C@H](CCCCN)C(=O)N[C@H](C(=O)N[C@@H](Cc1ccc(O)cc1)C(=O)N1CCC[C@H]1C(=O)Nc1ccc2c(C(F)(F)F)cc(=O)oc2c1)C(C)C [LBL 10108] the “Fluorescence as a function of LF concentration in 1:10 diluted plasma” value (Anthrax lethal factor [1]; 1:10 diluted plasma) was “fluorescence increased as a function of LF concentration” and the “Sensitivity compared to LBL 10081 or LBL 10097” value (Anthrax lethal factor [1]; 1:10 diluted plasma) was “no significant improvement in the sensitivity”.

Where “and” joins values, the source holds several entries; their conditions need not be identical. Equal entries are not always repeated. Where two headings read alike, the source gives them in different places.
